Measured values from several laboratories, pooled; numbers as filed in NIAID ChemDB.

All rows: whole-cell or culture tests; species: Candida albicans; measure: MIC

Rows are shuffled and stem from different studies.

{"compound": "CCCCCCOC(=O)/C=C/C(=O)OCCCCCC", "strain or isolate": "ATCC 10231", "value": ">100 µg/mL"}
{"compound": "Cc1c(N2CC(N)C2)c(F)cn2c(=O)c(C(=O)O)cc(C3CC3)c12.Cl", "strain or isolate": "CCH442", "value": ">100 µg/mL"}
{"compound": "CC[C@@H](NC)[C@@H]1CCN(c2c(F)cn3c(=O)c(C(=O)O)cc(C4CC4)c3c2C)C1.Cl", "strain or isolate": "CCH442", "value": ">100 µg/mL"}
{"compound": "C[C@H]1[C@H](C)CC[C@]2(C(=O)O)CC[C@]3(C)C(=CC[C@@H]4[C@@]5(C)CC[C@H](O)C(C)(C)[C@@H]5CC[C@]43C)[C@H]12", "strain or isolate": "IFO1061", "value": ">200 µg/mL"}
{"compound": "CNCC1COC2(CCN(c3c(F)cn4c(=O)c(C(=O)O)cc(C5CC5)c4c3C)CC2)O1.Cl", "strain or isolate": "CCH442", "value": ">100 µg/mL"}
{"compound": "COC(=O)/C=C\\C(=O)OC", "strain or isolate": "ATCC 10231", "value": ">100 µg/mL"}
{"compound": "C=CC(C)(C)c1cc2cc3ccoc3cc2oc1=O", "strain or isolate": "ATCC 14053", "value": "500 µg/mL"}
{"compound": "Cc1c(N2CCCC(n3cccc3)C2)c(F)cn2c(=O)c(C(=O)O)cc(C3CC3)c12", "strain or isolate": "CCH442", "value": ">100 µg/mL"}
{"compound": "COc1cccc(Nc2ccc3c(C)c(C)sc3c2C)c1", "strain or isolate": "CECT 1394", "value": "0.05 µg/mL"}
{"compound": "CCCCCOC(=O)C(F)C(Br)C(=O)OCCCCC", "strain or isolate": "ATCC 10231", "value": ">100 µg/mL"}
{"compound": "Cc1c(N2CCC(CCO)CC2)c(F)cn2c(=O)c(C(=O)O)cc(C3CC3)c12", "strain or isolate": "CCH442", "value": ">100 µg/mL"}
{"compound": "COc1ccc(Cl)c(Nc2ccc3c(C)c(C)sc3c2C)c1", "strain or isolate": "CECT 1394", "value": "25 µg/mL"}
{"compound": "O=C1CCC(c2ccccc2)C(=O)N1CCCCN1CCN(c2ccccn2)CC1", "strain or isolate": "DSM 1386", "value": ">100 µM"}
{"compound": "Cc1sc2c(C)c(Nc3cccnc3Cl)ccc2c1C", "strain or isolate": "CECT 1394", "value": "25 µg/mL"}
{"compound": "O=C1CCC(c2ccccc2)C(=O)N1CCCCN1CCN(c2ccccc2O)CC1", "strain or isolate": "DSM 1386", "value": ">100 µM"}
{"compound": "Cc1c(N2CC[C@@H]([C@H](N)CO)C2)c(F)cn2c(=O)c(C(=O)O)cc(C3CC3)c12", "strain or isolate": "CCH442", "value": ">100 µg/mL"}
{"compound": "O=[N+]([O-])c1cnc(/C=C/c2ccccn2)s1", "strain or isolate": "E-3", "value": "31 µg/mL"}
{"compound": "COC(=O)[C@@H](Br)[C@@H](F)C(=O)OC", "strain or isolate": "ATCC 10231", "value": "50 µg/mL"}
{"compound": "COc1c(N2CCC(N)C2)c(F)cn2c(=O)c(C(=O)O)cc(C3CC3)c12.Cl", "strain or isolate": "CCH442", "value": ">100 µg/mL"}
{"compound": "CCCCCCOC(=O)/C=C\\C(=O)OCCCCCC", "strain or isolate": "ATCC 10231", "value": ">100 µg/mL"}
{"compound": "Cc1c(N2CC3CCC(C)(NC(=O)[C@H](C)N)C3C2)c(F)cn2c(=O)c(C(=O)O)cc(C3CC3)c12.Cl", "strain or isolate": "CCH442", "value": ">100 µg/mL"}
{"compound": "O=C1CCC(c2ccccc2)C(=O)N1CCCN1CCN(c2ccccn2)CC1", "strain or isolate": "DSM 1386", "value": ">100 µM"}
{"compound": "Cc1ccc2oc(=O)ccc2c1", "strain or isolate": "ATCC 14053", "value": "500 µg/mL"}
{"compound": "Nc1nnc(-c2cnc([N+](=O)[O-])s2)s1", "strain or isolate": "E-3", "value": "125 µg/mL"}
{"compound": "Cc1c(N2CC[C@@H](N(C)C)C2)c(F)cn2c(=O)c(C(=O)O)cc(C3CC3)c12", "strain or isolate": "CCH442", "value": ">100 µg/mL"}
{"compound": "C=CC[C@@H]1/C=C(/C)C[C@H](C)C[C@H](OC)[C@H]2O[C@@](O)(C(=O)C(=O)N3CCCC[C@H]3C(=O)O[C@H](/C(C)=C/[C@@H]3CC[C@@H](O)[C@H](OC)C3)[C@H](C)[C@@H](O)CC1=O)[C@H](C)C[C@@H]2OC", "strain or isolate": "SC5314", "value": ">3.12 µg/mL"}
{"compound": "COC(=O)/C=C(/F)C(=O)OC", "strain or isolate": "ATCC 10231", "value": ">100 µg/mL"}
{"compound": "COc1ccccc1N1CCN(CCCN2C(=O)CCC(c3ccccc3)C2=O)CC1", "strain or isolate": "DSM 1386", "value": ">100 µM"}
{"compound": "CCC(C)n1ncn(-c2ccc(N3CCN(c4ccc(OC[C@H]5CO[C@](Cn6cncn6)(c6ccc(Cl)cc6Cl)O5)cc4)CC3)cc2)c1=O", "strain or isolate": "A14058", "value": "0.25 µg/mL"}
{"compound": "Cc1c(N2CCNC(C)C2)c(F)cn2c(=O)c(C(=O)O)cc(C3CC3)c12.Cl", "strain or isolate": "CCH442", "value": ">100 µg/mL"}
{"compound": "CC(C/C=C/C=C/CC/C=C\\C=C\\CCC(C)(C)C)C(O)C(O)C(O)C(O)C(O)C1OC(=O)C(O)C1O", "strain or isolate": "83-2-14 (Juntendo)", "value": "12.5 µg/mL"}
{"compound": "Cc1c(N2CC[C@@H]([C@H](C)N)C2)c(F)cn2c(=O)c(C(=O)O)cc(C3CC3)c12", "strain or isolate": "CCH442", "value": ">100 µg/mL"}
{"compound": "COC(=O)/C=C/CC(=O)OC", "strain or isolate": "ATCC 10231", "value": ">100 µg/mL"}
{"compound": "Cc1c(N2CCC(C)(N)CC2)c(F)cn2c(=O)c(C(=O)O)cc(C3CC3)c12.Cl", "strain or isolate": "CCH442", "value": ">100 µg/mL"}
{"compound": "Cc1c(N2CCCC3(C2)OCCO3)c(F)cn2c(=O)c(C(=O)O)cc(C3CC3)c12", "strain or isolate": "CCH442", "value": ">100 µg/mL"}
{"compound": "CC(=O)Oc1ccc2ccc(=O)oc2c1", "strain or isolate": "ATCC 14053", "value": "250 µg/mL"}
{"compound": "Cc1c(N2C[C@@H](N)C[C@@H]2C)c(F)cn2c(=O)c(C(=O)O)cc(C3CC3)c12", "strain or isolate": "CCH442", "value": ">100 µg/mL"}

Repeating the final 4 entries:

Cc1c(N2CCC(C)(N)CC2)c(F)cn2c(=O)c(C(=O)O)cc(C3CC3)c12.Cl ; strain or isolate: CCH442 ; value: >100 µg/mL
Cc1c(N2CCCC3(C2)OCCO3)c(F)cn2c(=O)c(C(=O)O)cc(C3CC3)c12 ; strain or isolate: CCH442 ; value: >100 µg/mL
CC(=O)Oc1ccc2ccc(=O)oc2c1 ; strain or isolate: ATCC 14053 ; value: 250 µg/mL
Cc1c(N2C[C@@H](N)C[C@@H]2C)c(F)cn2c(=O)c(C(=O)O)cc(C3CC3)c12 ; strain or isolate: CCH442 ; value: >100 µg/mL